System: T lymphocyte
Assay: T lymphocyte IL-2 secretion test (HT-2 cell bioassay of ConA supernatant)
Type: in vivo, BALB/c mice
Conditions: IFN-γ and IL-2 groups 3×10^5 IU/kg/day, X ± SD
Procedure: The above substances were all dissolved in 0.5 ml saline and injected intraperitoneal (i.p.) for 15 continuous days, once per day.
Spleen cells of density 1×10^6/ml were placed onto a 96 wells cell culture plate, 100 μl/well, three parallel wells each of the assay sample and control sample per mouse. To the assay wells, 100 μl/well ConA of 100 μg/ml in RPMI-1640 was added, and 100 μl/well plain RPMI-1640 was used for the controls. The cells were incubated for 66 hrs at 37° C., 5% CO2. The cells were then pelleted by centrifugation at 150 g for 10 minutes. The supernatant was collected and stored at −20° C. for cytokines IL-2 and IFN determination.
HT-2 cells at log phase were collected by centrifugation at 150 g for 10 minutes, and washed three times with cold Hank's solution by re-suspension and centrifugation. The collected HT-2 cells were re-suspended in RPMI-1640 and incubated at 37° C., 5% CO2 for 30 minutes. The cells were further washed twice with RPMI-1640 by re-suspension and centrifugation, and re-suspended to final concentration of 2×10^5/ml with RPMI-1640.
The supernatant obtained in section 1.2 were diluted to the following percentage with RPMI-1640: 100%, 50%, 25%, 12.5%, 6.25%, and 3.125%.
rIL-2 was diluted to the following concentration with RPMI-1640: 500 IU/ml, 250 IU/ml, 125 IU/ml, 62.5 IU/ml, 31.25 IU/ml, and […].
A 96 well cell culture plate was set up with three parallel wells per combination:
Negative control: 100 μl RPMI-1640+100 μl HT-2 cell suspension
rIL-2 standard: 100 μl rIL-2 solution+100 μl HT-2 cell suspension
Assay well: 100 μl diluted supernatant+100 μl HT-2 cell suspension
The plate was incubated at 37° C., 5% CO2 for 68 hours, then centrifuged at 150 g for 15 minutes and the supernatant removed. 100 μl 0.5 mg/ml MTT in RPMI-1640 without phenolsulfonphthalein was added into each well. After shaking for 3-4 minutes to re-suspend the cells, continue to incubate for another 4 hours. Samples were then centrifuged at 150 g for 15 minutes and the supernatant was removed. To each well, 120 μl 40 mM HCl-2-propanol was added, mixed for 3-4 minutes and OD analyzed at 570 nm, referenced at 630 nm with an ELISA plate reader.
The average OD of the three parallel wells of each dilution was taken and plotted against concentration on a semi-log paper, concentration on the X-axis. The concentration at 50% OD saturation was obtained for both the testing supernatant and rIL-2. Sample IL-2 activity=(sample dilution at 50% maximum action÷rIL-2 standard dilution at 50% maximum action)×activity of rIL-2 standard at 50% maximum action (IU/ml) 1.5 The Effect of Peptides on the Activity of T Lymphocyte in Secreting Interferon (IFN)^[6]

IL-2: recombinant human interleukin-2, Shanghai Huaxin Biotech Inc.; positive control immunostimulant
activity of T lymphocyte in secreting IL-2 (peptide 0.5 μg/kg/day i.p. 15 days): 73 ± 13 IU | activity of T lymphocyte in secreting IL-2 (peptide 5 μg/kg/day i.p. 15 days): 77 ± 13 IU | activity of T lymphocyte in secreting IL-2 (peptide 50 μg/kg/day i.p. 15 days): 72 ± 12 IU | activity of T lymphocyte in secreting IL-2 (peptide 500 μg/kg/day i.p. 15 days): 70 ± 13 IU
